## Screening data, single-dose tests

The values are deposited in ChEMBL (CHEMBL3988442, “University of Dundee, Small-Polar-MMV Screening Library” (2021)).

Results are given as percent effect.
The controls that fix the scale are not given in the record; negative values are as filed.
This is part of a subset picked to be rich in strong results.

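Phenotypic screen: M. tuberculosis growth, cholesterol and DPPC medium, 4 days; the read-out is not stated. Concentration: 500 µM. The record gives no direction; compounds that gave an IC50 in retests scored well above the rest, so higher reads as more growth inhibition. Of about 18,000 compounds tested this way, about 900 (5%) reached 50% or more in at least one test.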

{"compound": "Cc1ccc(-n2nnnc2NC2CC2)cc1", "Percent Effect": 26.06}
{"compound": "CN(C)C(=O)CNC(=O)c1cncc2ccccc12", "Percent Effect": 3.482}
{"compound": "Cc1cc(C(=O)NCc2cccnc2OC(C)C)on1", "Percent Effect": 36.53}
{"compound": "Cn1cnc(S(=O)(=O)NCC(N)c2ccccc2)c1Cl", "stereo": "centres unmarked", "Percent Effect": -1.891}
{"compound": "COc1ccc(F)cc1C(=O)N1CC[C@H]2CC[C@@H](C1)N2", "Percent Effect": 0.4465}
{"compound": "O=C(NCc1ccco1)Nc1nc2c(s1)COCC2", "Percent Effect": 51.21}
{"compound": "Cc1cc(NC(=O)C(C)S(=O)(=O)c2ccccn2)no1", "stereo": "centres unmarked", "Percent Effect": -18.25}
{"compound": "CC(C)S(=O)(=O)N(C)CC(=O)N(C)Cc1cccs1", "Percent Effect": 8.289}
{"compound": "CCNC(=O)N1CCc2cc(OC)c(OC)cc2C1", "Percent Effect": 21.25}
{"compound": "CCNCC(=O)Nc1cccc(OC)c1", "Percent Effect": 18.43}
{"compound": "CCc1nnc(CNC(=O)c2nnc(C(C)C)s2)o1", "Percent Effect": 14.71}
{"compound": "CC(=O)N1CCCN(Cc2nc(C3CC3)no2)CC1", "Percent Effect": -10.53}
{"compound": "O=C(CSc1nnc(NCc2ccco2)s1)NC1CC1", "Percent Effect": 13.14}
{"compound": "CSCC[C@@H](CO)NC(=O)c1cc(C(C)C)nn1C", "Percent Effect": 5.693}
{"compound": "Cc1ccc[nH]c1=O", "Percent Effect": 0.2842}
{"compound": "CCOC(=O)c1ccccc1N1C(=O)C=CC1=O", "Percent Effect": 111.7}
{"compound": "CC(=O)c1csc(C)c1", "Percent Effect": 4.011}
{"compound": "Cc1cccc(CNC(=O)NCCCC(N)=O)c1", "Percent Effect": -18.86}
{"compound": "CN(C)C(CNC(=O)c1ccncc1)c1ccco1", "stereo": "centres unmarked", "Percent Effect": -6.697}
{"compound": "O=C(CCc1ccccc1)NCCNc1cnccn1", "Percent Effect": 5.408}
{"compound": "O=C(Nc1cccc(-n2cccn2)c1)N1CCSCC1", "Percent Effect": 55.09}
{"compound": "c1ccc2[nH]c(C3CNC3)nc2c1", "Percent Effect": 16.59}
{"compound": "c1cc(CCN2CCSCC2)ccn1", "Percent Effect": 5.105}
{"compound": "CCC1(CC)CN(C(=O)NCCC(C)C)CCS1(=O)=O", "Percent Effect": 55.74}
{"compound": "Cc1cc(N2CCN(CCO)CC2)nc2ccccc12", "Percent Effect": 27.3}
{"compound": "Cc1cc(C(=O)Nc2cccc(C[S+](C)[O-])c2)on1", "stereo": "centres unmarked", "Percent Effect": -10.22}
{"compound": "NC(=O)c1noc2c1CCCC2", "Percent Effect": 8.362}
{"compound": "O=C(NC1CC1)c1cn2ccccc2n1", "Percent Effect": -2.619}
{"compound": "CSc1cc(NC(=O)NCCn2ccnc2)ccn1", "Percent Effect": 7.597}
{"compound": "CCN(CC)C(C)CNc1ccc2nnnn2n1", "stereo": "centres unmarked", "Percent Effect": -24.43}
{"compound": "NC(=O)C(Sc1nnc[nH]1)c1ccc(Br)cc1", "stereo": "centres unmarked", "Percent Effect": 40.81}
{"compound": "CCOC(=O)CSCC(=O)NC(=O)NCc1ccco1", "Percent Effect": -15.2}
{"compound": "N[C@@H]1CCN(C(=O)CCc2ccc(F)cc2)C1", "Percent Effect": 15.64}
{"compound": "CN(CC(N)=O)Cc1cccc(C#N)c1", "Percent Effect": 18.5}
{"compound": "CCS(=O)(=O)N1CCCN(C(=O)NC(C)(C)C)CC1", "Percent Effect": -3.882}
{"compound": "Cc1cccc(NC(=O)Cn2cnnn2)c1", "Percent Effect": -20.02}
{"compound": "NS(=O)(=O)CCNC(=O)CCc1ccc(Br)cc1F", "Percent Effect": -2.481}
{"compound": "CN[C@@H]1CN(C(=O)OC(C)(C)C)C[C@H]1O", "Percent Effect": 2.761}
{"compound": "c1ccc(-n2nnnc2CN2CCCNCC2)cc1", "Percent Effect": -0.8454}
{"compound": "COc1ccc(C)cc1[C@@H](C)N", "Percent Effect": -5.836}
{"compound": "CC(C)NC(=O)NC1CCNC1", "stereo": "centres unmarked", "Percent Effect": 7.25}
{"compound": "CC(C)c1nnc(CN2C[C@@H]3CCC[C@H](C2)C(=O)N3)o1", "Percent Effect": -5.07}
{"compound": "CN(CCC#N)C(=O)CN1C(=O)c2ccccc2C1=O", "Percent Effect": -8.831}
{"compound": "O=C1C=CC(=O)N1c1cccc(F)c1", "Percent Effect": 7.659}
{"compound": "OCC1CCN(Cc2ccccc2)C1", "stereo": "centres unmarked", "Percent Effect": 5.21}
{"compound": "CC(C)c1ncc(C(=O)NC2(c3nnc[nH]3)CCC2)s1", "Percent Effect": 2.605}
{"compound": "NS(=O)(=O)Cc1cccc(NC(=O)N2CCSCC2)c1", "Percent Effect": 16.45}
{"compound": "COCC(=O)N(C)c1ccccc1", "Percent Effect": -6.933}

Once more, the final 4:

Compound	Percent Effect
OCC1CCN(Cc2ccccc2)C1 (centres unmarked)	5.21
CC(C)c1ncc(C(=O)NC2(c3nnc[nH]3)CCC2)s1	2.605
NS(=O)(=O)Cc1cccc(NC(=O)N2CCSCC2)c1	16.45
COCC(=O)N(C)c1ccccc1	-6.933